From patent US8058410B2, “Affinity ligands” (dated 2011)

Biological target: Npro mutants with the EDDIE motif in amino acid residues 53 to 57 (Classical swine fever virus, UniProt P21530, A109T/C112E/C134E/C138E/D160N/D35N/E148T/F89Y/G54D/I135V/I155T/K57E/K61R/L143Q/L158T/M18V/M94T/N13S/N55D/N62D/R53E/R66K/T28A/V114T/V27T/V83I)

Row | Substance | affinity to Npro mutants with the EDDIE motif in amino acid residues 53 to 57
1 | AFYRWY | specifically high affinity
2 | VSRNWY | specifically high affinity
